Anti-infective test results gathered from many reports (values: NIAID ChemDB through PubChem).

Common to all: whole-cell or culture tests; organism: Mycobacterium tuberculosis

Rows are shuffled and stem from different studies. Percent inhibition refers to the dose given; in toxicity tests it is the harm to the cells. ECn is the concentration giving n% inhibition of infection, replication or growth. MIC bound comes from a single tested concentration.

O=C(O)/C=C\C(=O)Nc1ccccc1 ; strain or isolate: H37Rv ; endpoint: MIC ; value: 50 µg/mL
CCCCC(CC)CN1CN(CC(CC)CCCC)CC(C)(NCCNCC(C)c2ccccc2)C1 ; endpoint: MIC ; value: 6.25 µM
CCCCC(CC)CN1CN(CC(CC)CCCC)CC(C)(NCCN[C@H](CC)CO)C1 ; endpoint: MIC ; value: 25 µM
COc1ccc(CCNCCNCCc2ccc(F)cc2)cc1 ; endpoint: MIC ; value: 12.5 µM
CCOC(=O)Nc1cc(NC(c2ccccc2)c2ccccc2)c2nc(-c3ccccc3)c(-c3ccccc3)nc2n1 ; strain or isolate: H37Rv ; endpoint: EC50 ; value: >12.5 µg/mL
CC[C@@H](O)C[C@@H]1O[C@@]2(CC[C@@H]1C)C[C@@H]1OC(=O)/C=C/[C@@](C)(O)[C@@H](O)[C@@H](C)[C@@H](O)[C@H](OC3CC(OC)C(O)C(C)O3)[C@@H](O)[C@](C)(O)CCC/C=C/[C@@H]3C[C@H](C)CO[C@@]3(O)C[C@H](O2)[C@H]1C ; strain or isolate: H37Rv ; read by: BACTEC ; endpoint: MIC ; value: ≥12.5 µg/mL
NC(=O)NCCCCCC(=O)O ; strain or isolate: H37Rv ; endpoint: MIC ; value: >100 µg/mL
CCOC(=O)c1oc2ccccc2c1CN(CCO)CCO ; strain or isolate: H37Rv ; dose: 12.5 µg/mL ; read by: BACTEC ; endpoint: inhibition ; value: 2%
CCOC(=O)Nc1cc(N)c2ncc(-c3ccc(Cl)cc3)nc2n1 ; strain or isolate: H37Rv ; endpoint: EC50 ; value: >12.5 µg/mL
CO[C@H]1/C=C/O[C@@]2(C)Oc3c(C)c(O)c4c(=O)c(c5oc6cc(N7CCN(CC(C)C)CC7)cc(=O)c6nc5c4c3=C2O)NC(=O)/C(C)=C\C=C\[C@H](C)[C@H](O)[C@@H](C)[C@@H](O)[C@@H](C)[C@H](OC(C)=O)[C@@H]1C ; strain or isolate: 2227 (rifampin-resistant) ; endpoint: MBC ; value: 0.05 µg/mL
NCC[C@H](O)C(=O)N[C@@H]1C[C@H](N)[C@@H](O[C@H]2O[C@H](CN)[C@@H](O)[C@H](O)[C@H]2O)[C@H](O)[C@H]1O[C@H]1O[C@H](CO)[C@@H](O)[C@H](N)[C@H]1O ; strain or isolate: TN4826 (H) ; endpoint: MIC ; value: >256 µg/mL
Nc1cc(C(=O)O)nc(N)n1 ; strain or isolate: H37Rv ; dose: 12.5 µg/mL ; read by: BACTEC ; endpoint: inhibition ; value: 0%
CCOC1=NN(C(N)=S)C(=O)C1 ; strain or isolate: H37Rv ; endpoint: MIC ; value: >100 µg/mL
CCCCN(CCNCCc1ccccc1OC)Cc1ccccc1 ; endpoint: MIC ; value: 50 µM
CC(CNCCC(c1ccccc1)c1ccccc1)NC1CCCCCCC1 ; endpoint: MIC ; value: 12.5 µM
CCCCC(CC)CN1CN(CC(CC)CCCC)CC(C)(NCCN[C@H](CO)Cc2ccccc2)C1 ; endpoint: MIC ; value: 25 µM
O=[N+]([O-])c1ccc(/C(=C\c2ccc(-c3ccccc3)o2)S(=O)(=O)c2ccccc2)o1 ; strain or isolate: H37Rv ; read by: BACTEC ; endpoint: MIC bound ; value: >12.5 µg/mL
O=c1ccccn1Cc1ccccc1 ; strain or isolate: H37Rv ; endpoint: MIC ; value: >100 µg/mL
O=C(NCCO)c1ccncc1 ; strain or isolate: H37Rv ; read by: resazurin ; endpoint: MIC bound ; value: >6.25 µg/mL
CCCCCCCCCCCNCCNCc1cccc(C)c1 ; endpoint: MIC ; value: 6.25 µM
CCOC(=O)Nc1cc(NNc2cc(NC(=O)OCC)nc(N)c2[N+](=O)[O-])c([N+](=O)[O-])c(N)n1 ; strain or isolate: H37Rv ; endpoint: EC50 ; value: >12.5 µg/mL
c1ccc2cc3c(ccc4ccccc43)cc2c1 ; strain or isolate: H37Rv ; endpoint: MIC ; value: >100 µg/mL
CC1(C)NC(=O)C(NC(=O)C(N)CC(=O)O)CCCCNC(=O)CCNC1=O ; strain or isolate: H37Rv ; dose: 6.25 µg/mL ; read by: resazurin ; endpoint: inhibition ; value: -5%
Nc1cccc2c(S(=O)(=O)O)ccc(O)c12 ; strain or isolate: H37Rv ; endpoint: MIC ; value: >100 µg/mL
O=C(CCCC(=O)NNC(=O)Nc1ccc(Cl)cc1)NNC(=O)Nc1ccc(Cl)cc1 ; strain or isolate: H37Rv ; read by: BACTEC ; endpoint: MIC ; value: ≥12.5 µg/mL
CC(C)N(C(=O)c1cnc2ccccc2c1)C(C)C.Cl ; strain or isolate: H37Rv ; endpoint: MIC ; value: >100 µg/mL
Cc1coc2c1C(O)C1(C)C(C)CCC(O)C1(O)C2 ; strain or isolate: H37Rv ; read by: BACTEC ; endpoint: MIC bound ; value: >12.5 µg/mL
Clc1cc(-c2ccccc2)oc1-c1ccccc1 ; strain or isolate: H37Rv ; endpoint: MIC ; value: 25 µg/mL
COc1ccc(CNCCNCCCCc2ccccc2)cc1OC ; endpoint: MIC ; value: 12.5 µM
CO[C@H]1/C=C/O[C@@]2(C)Oc3c(C)c(O)c4c(O)c(c5c(c4c3C2=O)NC2(CCN(CC(C)C)CC2)N=5)=NC(=O)/C(C)=C\C=C\[C@H](C)[C@H](O)[C@@H](C)[C@@H](O)[C@@H](C)[C@H](OC(C)=O)[C@@H]1C ; strain or isolate: 29 (rifampin-resistant) ; endpoint: MBC ; value: 0.2 µg/mL
Cc1ccccc1N ; strain or isolate: H37Rv ; endpoint: MIC ; value: >100 µg/mL
CCOC(=O)C(NC(=O)CC)(Nc1ccc(S(=O)(=O)Nc2onc(C)c2C)cc1)C(F)(F)F ; strain or isolate: H37Rv ; read by: BACTEC ; endpoint: MIC bound ; value: >12.5 µg/mL
O=C(O)c1ccc(=O)oc1 ; strain or isolate: H37Rv ; endpoint: MIC ; value: >100 µg/mL
CCOC(=O)Nc1cc(NCc2ccccc2)c2[nH]cnc2n1 ; strain or isolate: H37Rv ; endpoint: EC50 ; value: >12.5 µg/mL
Cc1n[nH]c(=O)n1-c1cccnc1 ; strain or isolate: H37Rv ; dose: 6.25 µg/mL ; read by: resazurin ; endpoint: inhibition ; value: -24%
CC(NCCNCCc1ccccc1)c1cccc2ccccc12 ; endpoint: MIC ; value: 50 µM
Nc1nc2c(c(=O)[nH]1)CN(CCCN1CCN(CCCN3CNc4nc(N)[nH]c(=O)c4C3)CC1)CN2 ; strain or isolate: H37Rv ; dose: 12.5 µg/mL ; read by: BACTEC ; endpoint: inhibition ; value: 2%
CS(=O)(=O)c1cc(N)c2ncccc2c1 ; strain or isolate: H37Rv ; endpoint: MIC ; value: >100 µg/mL
C[C@@H]1[C@H]2C[C@@H](C[C@H]1NCCNC1CCCCCCC1)C2(C)C ; endpoint: MIC ; value: 6.25 µM
CCN1CCN(CC)C1=S ; strain or isolate: H37Rv ; dose: 12.5 µg/mL ; read by: BACTEC ; endpoint: inhibition ; value: 0%
CCN(CCO)c1ccccc1 ; strain or isolate: H37Rv ; endpoint: MIC ; value: >100 µg/mL
Nc1nnc2nc(C3(c4nc5nnc(N)n5[nH]c4=O)Cc4ccccc4C3=O)c(=O)[nH]n12 ; strain or isolate: H37Rv ; read by: BACTEC ; endpoint: MIC bound ; value: >12.5 µg/mL
O=C(c1cc(Br)ccc1O)c1cc(Br)ccc1O ; strain or isolate: H37Rv ; endpoint: MIC ; value: 25 µg/mL
CC(C)(C)CC(C)(C)NCCNc1cccc2ncccc12 ; endpoint: MIC ; value: 3.13 µM
CC(C)NC(=O)OCCN=C1c2ccccc2C(Br)C(Br)c2ccccc21 ; strain or isolate: H37Rv ; read by: BACTEC ; endpoint: MIC bound ; value: >12.5 µg/mL
CC(C)c1ccc2c(c1)CC[C@H]1[C@](C)(CNCCNCC(O)CO)CCC[C@]21C ; endpoint: MIC ; value: 50 µM
Oc1ccccc1C=NCCN=Cc1ccccc1O ; strain or isolate: H37Rv ; endpoint: MIC ; value: >100 µg/mL
NC1CC(c2ccccc2)OC1=O ; strain or isolate: H37Rv ; dose: 12.5 µg/mL ; read by: BACTEC ; endpoint: inhibition ; value: -3%
O=c1[nH]c2c([N+](=O)[O-])cc(Cl)cc2c(=O)o1 ; strain or isolate: H37Rv ; endpoint: MIC ; value: 100 µg/mL
O=C1c2cccc(NCC3CO3)c2C(=O)c2cccc(NCC3CO3)c21 ; strain or isolate: H37Rv ; read by: BACTEC ; endpoint: MIC bound ; value: ≤12.5 µg/mL
COc1ccc(CCNCCNC(C)c2cccc3ccccc23)cc1 ; endpoint: MIC ; value: 50 µM
O=[N+]([O-])c1ccc(OCCCOc2ccc([N+](=O)[O-])cc2)cc1 ; strain or isolate: H37Rv ; endpoint: MIC ; value: >100 µg/mL
Cc1cc(OC(=O)c2c(-c3c(Cl)cccc3Cl)noc2C)n(-c2ccc(NC(=O)c3c(-c4c(Cl)cccc4Cl)noc3C)cc2)n1 ; strain or isolate: H37Rv ; read by: resazurin ; endpoint: MIC bound ; value: >6.25 µg/mL
CCOC(=O)c1ccc(N2C(=O)c3cccc4cccc(c34)C2=O)cc1 ; strain or isolate: H37Rv ; endpoint: MIC ; value: >100 µg/mL
NNC(=O)c1cc(-c2ccccc2)nc2ccccc12 ; strain or isolate: H37Rv ; read by: BACTEC ; endpoint: MIC bound ; value: >12.5 µg/mL
CC(=O)N1CCCCC1 ; strain or isolate: H37Rv ; endpoint: MIC ; value: >100 µg/mL
CCN=C1Nc2ccccc2-n2c(nn3nc4ccccc4c23)N1CC ; strain or isolate: H37Rv ; dose: 12.5 µg/mL ; read by: BACTEC ; endpoint: inhibition ; value: 50%
O=C(O)/C=C/C=C/c1ccccc1 ; strain or isolate: H37Rv ; endpoint: MIC ; value: >100 µg/mL
CCOC(=O)Nc1cc(NN)c([N+](=O)[O-])c(NC(=O)OCC)n1 ; strain or isolate: H37Rv ; endpoint: EC50 ; value: >12.5 µg/mL
NNC(=O)c1cnn(-c2ccc(N(CCO)CCO)nn2)c1N ; strain or isolate: H37Rv ; read by: BACTEC ; endpoint: MIC bound ; value: >12.5 µg/mL
c1ccc(-n2c3ccccc3c3ccccc32)cc1 ; strain or isolate: H37Rv ; endpoint: MIC ; value: >100 µg/mL